One assay concerns the target H59Q/PME-1 complex (Homo sapiens, UniProt P67775, H59Q). As to conditions: NIH3T3 lysis buffer with sodium vanadate 1 mM; NaF 50 mM; okadaic acid 500 nM; PAO 10 μM; Na4P2O7 20 mM.
The target of a further assay is PP2A (Homo sapiens, UniProt P67775). Put plainly: PP2A phosphatase inhibition using phosphorylase a as substrate. As to conditions: separate experiment. The class given is biochemical.

Chains of the proteins cited; added tags and fusions are not shown.
UniProt P67775, whole entry H59Q, looked up: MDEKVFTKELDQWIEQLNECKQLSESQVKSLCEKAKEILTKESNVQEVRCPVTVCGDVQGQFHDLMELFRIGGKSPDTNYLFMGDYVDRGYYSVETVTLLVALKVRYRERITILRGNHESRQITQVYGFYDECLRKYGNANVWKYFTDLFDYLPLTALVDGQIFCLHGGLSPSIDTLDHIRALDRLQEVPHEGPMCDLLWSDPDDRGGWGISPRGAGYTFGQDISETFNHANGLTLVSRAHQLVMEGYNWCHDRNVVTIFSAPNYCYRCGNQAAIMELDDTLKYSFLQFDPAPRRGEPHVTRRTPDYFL
UniProt P67775, whole entry, looked up: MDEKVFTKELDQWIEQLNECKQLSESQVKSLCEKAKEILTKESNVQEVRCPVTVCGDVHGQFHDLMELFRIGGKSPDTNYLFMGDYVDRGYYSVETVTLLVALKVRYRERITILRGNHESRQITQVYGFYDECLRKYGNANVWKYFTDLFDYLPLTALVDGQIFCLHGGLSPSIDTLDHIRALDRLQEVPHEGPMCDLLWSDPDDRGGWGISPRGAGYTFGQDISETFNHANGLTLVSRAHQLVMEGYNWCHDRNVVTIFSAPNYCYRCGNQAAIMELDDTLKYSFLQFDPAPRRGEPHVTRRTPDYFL

Regarding `O=[As]c1ccccc1` (centres unmarked), on H59Q/PME-1 complex, the “amount of PME-1 bound to (complexed with) H59Q C subunit” value was “not”. On PP2A, the “inhibition of PP2A” value was “no”.

(Values after patent US6528295B2, “Protein phosphatase methylesterase” (priority 1998, dated 2003).)
